A mixed list of measured activities; the numbers were collected in NIAID ChemDB.

Common to all: whole-cell or culture tests; agent: Aspergillus flavus; measure: MIC

Rows are shuffled and stem from different studies.

smiles	strain or isolate	value
Cc1nc2c(CN)c(-c3ccc(C)o3)c(CN)c(=O)n2[nH]1		25 µg/mL
Cn1c(=O)c(-c2[nH][nH]c(=O)c2N=Nc2ccccc2Cl)c(O)c2ccccc21	ATCC 28542	50 µg/mL
Cc1ccc(OCC(=O)Nc2nc(-c3cccc(Cl)c3)cs2)cc1C	NCIM 524	12.5 µg/mL
CN1C(=O)/C(=c2/[nH][nH]c(=O)/c2=C\c2ccc(N)cc2)C(=O)c2ccccc21	ATCC 28542	>100 µg/mL
O=C1CCC(c2ccc(Cl)cc2)=NN1Cc1n[nH]c(=S)n1-c1ccc(Br)cc1		4 µg/mL
Cn1c(=O)c(-c2[nH][nH]c(=O)c2N=Nc2cccc(Cl)c2)c(O)c2ccccc21	ATCC 28542	>100 µg/mL
Cc1ccc(-c2c(CN)c(N)n(N)c(=O)c2CN)o1		1.56 µg/mL
CC(=Nc1cccc2cccc(N=C(C)c3c(O)ccc4c(C)cc(=O)oc34)c12)c1c(O)ccc2c(C)cc(=O)oc12	MTCC 1883	10 µg/mL
COc1cccc(CC(=O)Nc2nc(-c3cccc(Cl)c3)cs2)c1	NCIM 524	6.25 µg/mL
COc1ccc(-c2nc3c(CN)c(-c4ccc(C)o4)c(CN)c(=O)n3[nH]2)cc1		3.125 µg/mL
CN1C(=O)/C(=c2/[nH][nH]c(=O)/c2=C\c2ccc3c(c2)OCO3)C(=O)c2ccccc21	ATCC 28542	50 µg/mL
O=C1CCC(c2ccccc2)=NN1Cc1n[nH]c(=S)n1-c1ccc(Cl)cc1		5 µg/mL
Cn1c(=O)c(-c2[nH][nH]c(=O)c2C=Nc2cccnc2)c(O)c2ccccc21	ATCC 28542	25 µg/mL
O=C1CCC(c2ccc(Br)cc2)=NN1Cc1n[nH]c(=S)n1-c1ccccc1		10 µg/mL
COc1cccc(CC(=O)Nc2nc(C)cs2)c1	NCIM 524	12.5 µg/mL
CCC(C)n1ncn(-c2ccc(N3CCN(c4ccc(OC[C@H]5CO[C@](Cn6cncn6)(c6ccc(Cl)cc6Cl)O5)cc4)CC3)cc2)c1=O	IAM 13835	0.1 µg/mL
COC(=O)Cc1csc(NC(=O)Cc2cccc(OC)c2)n1	NCIM 524	12.5 µg/mL
COc1cccc(/C=c2\c(=O)[nH][nH]\c2=C2/C(=O)c3ccccc3N(C)C2=O)c1	ATCC 28542	>100 µg/mL
Cc1ccc(CC(=O)Nc2nc(C)cs2)cc1	NCIM 524	12.5 µg/mL
Nc1[nH]c(=O)ncc1F	KCCM 11899	0.8 µg/mL
COc1ccc(C2=NN(Cc3n[nH]c(=S)n3-c3ccc(Br)cc3)C(=O)CC2)cc1		13 µg/mL

An empty or dashed field is not shown.